From US8916540B2, “Antibiotic compositions and related screening methods” (Academia Sinica, priority 2008, dated 2014) come the findings set out here.

Amino acid sequences for entries named in this document (tags omitted).
UniProt O25319, whole entry I22V/I24V/I79V/M17V/S417T/V16I/D336E/D508E/E323D/E406V/F125L/G242S/G44S/I101V: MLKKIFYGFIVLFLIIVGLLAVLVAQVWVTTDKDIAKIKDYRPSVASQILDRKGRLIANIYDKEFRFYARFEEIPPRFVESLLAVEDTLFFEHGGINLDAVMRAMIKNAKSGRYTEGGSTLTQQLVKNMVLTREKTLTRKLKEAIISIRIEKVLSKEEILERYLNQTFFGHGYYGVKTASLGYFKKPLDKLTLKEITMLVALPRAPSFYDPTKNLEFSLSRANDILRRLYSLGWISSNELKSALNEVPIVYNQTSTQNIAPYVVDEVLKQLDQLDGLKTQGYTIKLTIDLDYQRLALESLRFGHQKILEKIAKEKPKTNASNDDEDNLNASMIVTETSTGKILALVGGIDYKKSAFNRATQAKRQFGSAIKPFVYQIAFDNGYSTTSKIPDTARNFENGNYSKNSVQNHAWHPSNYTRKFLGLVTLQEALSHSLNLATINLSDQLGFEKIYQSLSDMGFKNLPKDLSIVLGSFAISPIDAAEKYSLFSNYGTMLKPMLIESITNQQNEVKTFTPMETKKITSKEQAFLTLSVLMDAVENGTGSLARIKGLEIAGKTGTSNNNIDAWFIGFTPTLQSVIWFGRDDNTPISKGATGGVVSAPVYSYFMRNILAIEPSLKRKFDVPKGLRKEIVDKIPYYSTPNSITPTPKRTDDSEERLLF

The assay has as its target T1, H. pylori PBP1a (Helicobacter pylori, UniProt O25319, /I22V/I24V/I79V/M17V/S417T/V16I, form not given).
T1 sequence (O25319 1-659 V16I/M17V/I22V/I24V/G44S/I79V/I101V/F125L/G242S/E323D/D336E/E406V/S417T/D508E): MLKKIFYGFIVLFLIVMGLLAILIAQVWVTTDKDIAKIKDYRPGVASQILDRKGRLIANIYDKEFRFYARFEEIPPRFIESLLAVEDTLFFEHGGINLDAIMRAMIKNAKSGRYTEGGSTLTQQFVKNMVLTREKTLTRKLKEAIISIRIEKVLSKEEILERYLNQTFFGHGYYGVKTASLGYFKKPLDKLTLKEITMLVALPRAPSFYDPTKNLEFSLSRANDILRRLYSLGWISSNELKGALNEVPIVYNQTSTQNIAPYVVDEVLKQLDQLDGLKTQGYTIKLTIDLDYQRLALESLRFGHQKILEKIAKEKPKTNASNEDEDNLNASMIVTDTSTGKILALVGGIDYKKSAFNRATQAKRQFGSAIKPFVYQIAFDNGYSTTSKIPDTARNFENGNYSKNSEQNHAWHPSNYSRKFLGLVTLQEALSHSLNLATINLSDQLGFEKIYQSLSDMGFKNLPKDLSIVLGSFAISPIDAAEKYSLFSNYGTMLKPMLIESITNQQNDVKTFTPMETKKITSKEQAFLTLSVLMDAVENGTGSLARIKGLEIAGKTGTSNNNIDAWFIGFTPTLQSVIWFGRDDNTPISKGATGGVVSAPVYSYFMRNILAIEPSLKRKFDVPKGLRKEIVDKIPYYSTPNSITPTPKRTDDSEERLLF
In kind it is binding. On the procedure:
Fluorescence anisotropy measurements were carried out in triplicates in the wells of 384-well plates using a laser fluorimetry equipped with a 488 nm laser (IsoCyte, Blueshift Biotech, Inc., Sunnyvale, Calif., USA). Various buffers, salts, pH values, and divalent cations (Ca^++, Mg^++, Co^++) were optimized for fluorescence anisotropy measurements. […] The scanning focus was above the plate bottom to avoid detection interferences. Data analysis was performed with the proprietary software, BlueImage (Blueshift Biotech Inc). Fluorescence anisotropy values (A) were calculated using the equation: A=(/∥−G*/⊥)/(/∥+2G*/⊥), where /∥ is the fluorescence intensity of emitted light parallel to excitation, /⊥ is the fluorescence intensity of emitted light perpendicular to excitation, and G is the […] that corrects for instrument bias. The G factor is experimentally determined for each run using the probe-only well as the basal an isotropy.
For the development of an assay for inhibitor screening, F-Moe was pre-incubated with H. pylori PBP1a and then competed with unlabeled Moe A at various concentrations.
For displacement assay, the initial condition contained 40 μl of 100 nM F-Moe, 10 μg/ml H. pylori PBP1a in 10 mM Tris, pH 8.0, 100 mM NaCl. Aliquots of compound stock solution were added and the anisotropy was monitored after 5 minutes of equilibration. […]

Broadly, the IC50 is the concentration at which inhibition is half-maximal. By Ki is commonly meant a dissociation constant, usually derived from enzyme kinetics or from competition with a known ligand. For the substance Moenomycin A [Compound 1], the IC50 (read-out: IC50 (fluorescence anisotropy assay, displacement of F-Moe), 100 nM F-Moe, 10 μg/ml H. pylori PBP1a, 10 mM Tris pH 8.0, 100 mM NaCl) is 360 nM. Under “read-out: KI (inhibition constant), displacement of F-Moe pre-incubated with H. pylori PBP1a”, the inhibition constant Ki came out at 470 ± 100 nM.
